Anti-infective test results gathered from many reports (values: NIAID ChemDB through PubChem).

All rows: tests on isolated targets; species: HIV-1; protein: Reverse transcriptase; read by: nucleotide incorporation / radiometric; endpoint: IC50

Lines come from different laboratories, so protocols vary.

compound | changes | strain | value
CCN1c2ncc(CCOc3ccc(-c4ccccc4)cc3)cc2C(=O)N(C)c2cccnc21 | - | IIIB | <0.05 µM
Cc1ccc(-n2c(SCC(=O)Nc3ccc(S(=O)(=O)NCCN4CCOCC4)cc3Cl)nnc2C(F)F)c2c1CCCC2 | RT-Y181C | - | 0.05–0.1 µM
CCN1c2ncc(CCOc3ccc(-c4cccc(C(=O)O)c4)cc3)cc2C(=O)N(C)c2cccnc21 | RT-K103N Y181C | IIIB | >0.1 µM
O=C(CSc1nnc(C(F)F)n1-c1ccc(C2CC2)c2ccccc12)Nc1ccc(C(=O)O)cc1Cl | RT-Y181C | - | <0.05 µM
CCCc1ccc(-n2c(Br)nnc2SCC(=O)Nc2ccc(S(N)(=O)=O)cc2C)c2ccccc12 | - | - | <0.05 µM
Cc1cc(C2CC2)cc(C)c1-n1c(Br)nnc1SCC(=O)Nc1ccc(C(=O)O)cc1Cl | RT-Y181C | - | <0.05 µM
O=C(CSc1nnc(Br)n1-c1ccc(C2CC2)cc1OC(F)(F)F)Nc1ccc(S(=O)(=O)O)cc1Cl | RT-Y188L | - | >0.1 µM
CCN1c2ncc(CCOc3ccc4cc(CC(=O)O)ccc4c3)cc2C(=O)N(C)c2cccnc21 | RT-K103N Y181C | - | >1 µM
CCN1c2ncc(CCOc3ccc(-c4cnc[nH]4)cc3C)cc2C(=O)N(C)c2cccnc21 | RT-K103N Y181C | IIIB | <0.05 µM
CCOC(=O)CCNC(=O)c1ccc(NC(=O)CSc2nnc(Br)n2-c2ccc(CC)c3ccccc23)c(Cl)c1 | - | - | <0.05 µM
CCN1c2ncc(C3(c4ccccc4)CO3)cc2C(=O)N(C)c2ccc(Cl)nc21 | RT-Y181C | - | <1 µM
CCN1c2ncc(CCOc3ccc(C(=O)Nc4ccc(C(=O)O)cc4)cc3C)cc2C(=O)N(C)c2cccnc21 | RT-K103N Y181C | IIIB | <0.05 µM
NS(=O)(=O)c1ccc(NC(=O)CSc2nnc(Cl)n2-c2ccc(C3CC3)c3ccccc23)c(Cl)c1 | - | - | <0.05 µM
CCN1c2ncc(CCOc3ccc(CCC(=O)O)c4ccccc34)cc2C(=O)Nc2c(C)cc(Cl)nc21 | RT-K103N Y181C | - | 0.1–1 µM
O=C(CSc1nnc(Br)n1-c1ccc(C2CCC2)c2ccccc12)Nc1ccc(C(=O)O)cc1Cl | RT-Y181C | - | <0.05 µM
CCN1c2ncc(CCOc3ccc(-c4nn[nH]n4)cc3C)cc2C(=O)N(C)c2cccnc21 | - | IIIB | <0.05 µM
CCc1ccc(-n2c(Br)nnc2SCC(=O)Nc2ccc(C(=O)NCC(C)(C)N)cc2Cl)c2ccccc12 | - | - | <0.05 µM
CCN1c2nc(C(F)(F)F)ccc2NC(=O)c2cc(CCOc3cc[n+]([O-])c4ccccc34)cnc21 | RT-K103N Y181C | - | 0.084 µM
CCc1ccc(-n2c(Br)nnc2SCC(=O)Nc2ccc(C(=O)NCCOC)cc2Cl)c2ccccc12 | RT-Y181C | - | <0.05 µM
NC(=O)c1[nH]c2ccc(Cl)cc2c1S(=O)(=O)c1ccccc1 | RT-Y181I | - | 0.14 µM
CCc1ccc(-n2c(Br)nnc2SCC(=O)Nc2ccc(C(=O)NCCN3CCCC3)cc2Cl)c2ccccc12 | - | - | <0.05 µM
CCOC(=O)[C@H](Cc1ccc(O)cc1)NC(=O)c1ccc(NC(=O)CSc2nnc(Br)n2-c2ccc(C3CC3)c3ccccc23)c(Cl)c1 | - | - | 0.05–0.1 µM
CCN1c2ncccc2NC(=O)c2cc(CCOc3ccc(-c4cc(OC)c(O)c(C(=O)O)c4)cc3C)cnc21 | RT-K103N Y181C | IIIB | <0.05 µM
CCN1c2ncc(CC(O)c3cc[n+]([O-])cc3)cc2C(=O)N(C)c2ccc(Cl)nc21 | - | WT | <1 µM
CCc1ccc(-n2c(Br)nnc2SCC(=O)Nc2ccc(C(=O)NCC(OC)OC)cc2Cl)c2ccccc12 | RT-Y188L | - | >0.1 µM
CCN1c2ncc(CCc3cccc4[nH]cc(SC)c34)cc2C(=O)N(C)c2ccc(Cl)nc21 | - | WT | >1 µM
CCN1c2ncc(CCOc3ccc(-c4ccc[n+]([O-])c4)cc3C)cc2C(=O)Nc2c(C)ccnc21 | RT-K103N Y181C | IIIB | <0.05 µM
CCN1c2ncc(CCc3cccc(NC(N)=O)c3)cc2C(=O)N(C)c2ccc(Cl)nc21 | RT-Y181C | - | <1 µM
CCN1c2ncc(CCOc3ccc(C(=O)O)c4ccccc34)cc2C(=O)N(C)c2ccc(C)nc21 | RT-Y188L | - | >1 µM
CCN1c2ncc(CCc3ccc4c(SC)c[nH]c4c3)cc2C(=O)N(C)c2ccc(Cl)nc21 | - | WT | <1 µM
NS(=O)(=O)c1ccc(NC(=O)CSc2nncn2-c2ccc(C3CC3)c3ccccc23)c(Cl)c1 | RT-Y181C | - | 0.05–0.1 µM
CCc1cc(C2CC2)ccc1-n1c(Br)nnc1SCC(=O)Nc1ccc(C(=O)O)cc1Cl | RT-Y181C | - | 0.05–0.1 µM
Cc1cc(S(=O)(=O)O)ccc1NC(=O)CSc1nnc(C(F)F)n1-c1ccc(C)c2c1CCCC2 | RT-Y188L | - | >0.1 µM
Cc1cc(C)cc(S(=O)(=O)c2c(C(N)=O)[nH]c3ccc(F)c(F)c23)c1 | - | WT | 0.0022 µM
CCc1ccc(-n2c(Br)nnc2SCC(=O)Nc2ccc(C(=O)N[C@H](C(=O)OC)C(C)C)cc2Cl)c2ccccc12 | - | - | 0.05–0.1 µM
CCN1c2ncccc2NC(=O)c2cc(CCOc3ccc(-c4ccc(CC(=O)O)cc4)cc3C)cnc21 | - | IIIB | <0.05 µM
Cc1cc(C2CC2)cc(Cl)c1-n1c(Br)nnc1SCC(=O)Nc1ccc(C(=O)O)cc1Cl | RT-Y188L | - | >0.1 µM
O=C(CSc1nnc(C(F)F)n1-c1ccc(C2CC2)c2ccccc12)Nc1ccc(C(=O)O)cc1Cl | - | - | <0.05 µM
CCN1c2ncc(CCOc3ccc(CC(C)C(=O)O)c4ccccc34)cc2C(=O)N(C)c2ccc(F)nc21 | RT-Y188L | - | >1 µM
Cc1ccc2ccccc2c1-n1c(Br)nnc1SC(C)C(=O)Nc1ccc(S(N)(=O)=O)cc1Cl | RT-Y181C | - | 0.05–0.1 µM
O=C(CSc1nnc(Br)n1-c1ccc(C2CC2)cc1C(F)(F)F)Nc1ccc(C(=O)O)cc1Cl | RT-Y188L | - | >0.1 µM
O=C(CSc1nnc(Br)n1-c1c(Cl)cc(C2CCC2)c2ccccc12)Nc1ccc(C(=O)O)cc1Cl | RT-Y181C | - | <0.05 µM
CCN1c2ncc(CCc3ccncc3)cc2C(=O)N(C)c2ccc(I)nc21 | - | WT | <1 µM

The first 5 rows once more:

compound	changes	strain	value
CCN1c2ncc(CCOc3ccc(-c4ccccc4)cc3)cc2C(=O)N(C)c2cccnc21	-	IIIB	<0.05 µM
Cc1ccc(-n2c(SCC(=O)Nc3ccc(S(=O)(=O)NCCN4CCOCC4)cc3Cl)nnc2C(F)F)c2c1CCCC2	RT-Y181C	-	0.05–0.1 µM
CCN1c2ncc(CCOc3ccc(-c4cccc(C(=O)O)c4)cc3)cc2C(=O)N(C)c2cccnc21	RT-K103N Y181C	IIIB	>0.1 µM
O=C(CSc1nnc(C(F)F)n1-c1ccc(C2CC2)c2ccccc12)Nc1ccc(C(=O)O)cc1Cl	RT-Y181C	-	<0.05 µM
CCCc1ccc(-n2c(Br)nnc2SCC(=O)Nc2ccc(S(N)(=O)=O)cc2C)c2ccccc12	-	-	<0.05 µM

Blank or dashed fields: not listed here. ICn is the concentration giving n% inhibition. Two numbers with a dash give a range or band.